Reference: patent publication US6440980B1, “Synergistic inhibition of viral replication by long-chain hydrocarbons and nucleoside analogs” (Avanir Pharmaceuticals, priority 1996, dated 2002)

System: Vero cells
Assay: Cell-associated n-[1-14C]docosanol
Assay type: cell-based, African Green monkey
Conditions: 24 hours

In the case of `CCCCCCCCCCCCCCCCCCCCCCO` [n-docosanol], the cell-associated n-docosanol bound (1:1 ratio of surfactant to n-docosanol) is reported as 3.1×10^−6 μg/cell and the cell-associated n-docosanol bound (4:1 ratio of surfactant to n-docosanol) is reported as 7.8×10^−6 μg/cell.
